# Genome-wide point mutation profile of HIV-1: Nef

The measurements come from Al-Mawsawi et al. 2014 (doi:10.1186/s12977-014-0124-6).

Protein: Nef of HIV-1 NL4-3, numbered from its first residue.
From base 9076 on, changes also alter the 3' U3.
Effects on overlapping genes or RNA elements are not listed.

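Seven fragments of pNL4-3 were mutated by error-prone PCR, and each virus pool was passaged in CEM T cells. Sequencing gave the RC index: frequency after two rounds over frequency in the input plasmid.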

A higher RC index is a better tolerated change; approximate classes are lethal up to 0.1, attenuated to 0.2, tolerated above.
Substitutions are written as wild-type residue, site number, new residue.
Input reads are the counts in the plasmid library.
The authors read an index above 1 as above wild type (1.9% of all changes in the genome).
Nucleotide positions follow pNL4-3.
Since each clone held several changes (about five per kb), neutral changes can read low.

- P131Q (base C9178A, input reads 77) -> 0.660
- F90C (base T9055G, input reads 125) -> 0.369
- H192Q (base T9362G, input reads 31) -> 1.31
- H199N (base C9381A, input reads 54) -> 0.344
- E197G (base A9376G, input reads 240) -> 0.549
- Y115F (base A9130T, input reads 192) -> 0.641
- L137P (base T9196C, input reads 419) -> 0.603
- Q125H (base G9161T, input reads 320) -> 1.05
- K158N (base A9260T, input reads 360) -> 0.938
- G99V (base G9082T, input reads 351) -> 0.236
- P147L (base C9226T, input reads 295) -> 0.831
- H199R (base A9382G, input reads 440) -> 0.461
- L165I (base T9279A, input reads 483) -> 0.809
- D86E (base T9044A, input reads 531) -> 0.493
- H166L (base A9283T, input reads 320) -> 0.965
- N161T (base A9268C, input reads 40) -> 1.47
- D86G (base A9043G, input reads 352) -> 0.667
- I43N (base T8914A, input reads 160) -> 0.591
- K4M (base A8797T, input reads 670) -> 0.715
- F185L (base T9341G, input reads 64) -> 0.449
- Y202C (base A9391G, input reads 228) -> 0.941
- N51I (base A8938T, input reads 432) -> 0.846
- E201Q (base G9387C, input reads 96) -> 0.686
- W183L (base G9334T, input reads 314) -> 0.419
- F68S (base T8989C, input reads 310) -> 0.464
- S169I (base G9292T, input reads 112) -> 0.663
- F191L (base T9359A, input reads 638) -> 0.392
- D111N (base G9117A, input reads 248) -> 0.744
- F203L (base C9395G, input reads 40) -> 0.549

Excerpt, the final 2 entries:

- D111N (base G9117A, input reads 248) = 0.744
- F203L (base C9395G, input reads 40) = 0.549